Measurements as given in patent US7807400B2, “Methods for identifying chemical modulators of Ras superfamily GTPase activity” (The University of North Carolina at Chapel Hill, priority 2004, dated 2010).

Amino acid sequences for entries named in this document (tags omitted).
UniProt P61586, whole entry, looked up: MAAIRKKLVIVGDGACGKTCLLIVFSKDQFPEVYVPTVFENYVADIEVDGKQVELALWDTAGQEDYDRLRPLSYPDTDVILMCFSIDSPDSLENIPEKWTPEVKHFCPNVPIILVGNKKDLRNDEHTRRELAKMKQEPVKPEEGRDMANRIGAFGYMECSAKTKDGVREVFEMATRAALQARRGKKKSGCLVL

Biological target: Dbs-mediated activation of RhoA (Homo sapiens, UniProt P61586)
Experiment: fluorescence guanine nucleotide exchange reaction, Dbs-mediated activation of RhoA
Type: biochemical
Details: fluorescence after addition of GEF, versus DMSO vehicle control

## O=[As]c1ccccc1 (stereo not shown)
  effect on Dbs-mediated RhoA activation / guanine nucleotide exchange: inhibits RhoA activation
